Results of unrelated studies side by side (data: NIAID ChemDB).

Shared fields: whole-cell or culture tests; species: HIV-1; cell line: CEM + CEM-SS; endpoint: EC50

ECn: concentration that inhibits the pathogen or its effect by n%.

structure | strain | changes | method | conditions | value
Cc1cn([C@H]2C[C@H](N=[N+]=[N-])[C@@H](COP(=O)(O)O)O2)c(=O)[nH]c1=O | IIIB | - | - | - | 0.007 µM
Cc1c(O)cccc1C(=O)N[C@@H](CSc1ccccc1)[C@H](O)CN1C[C@H]2CCCC[C@H]2C[C@H]1C(=O)NC(C)(C)C | RF | - | cytopathic effect / MTT | - | 0.0301 µM
C/C=C/CSc1cc(NC(=S)c2ccsc2C)ccc1Cl | RF | - | cytopathic effect / XTT | - | 0.1 µM
Cc1c(OC(=O)CCCCO[C@H]2O[C@H](CO)[C@@H](O)[C@H](O)[C@@H]2O)cccc1C(=O)N[C@@H](CSc1ccccc1)[C@@H](CN1C[C@H]2CCCC[C@H]2C[C@H]1C(=O)NC(C)(C)C)OC(=O)CCCCO[C@H]1O[C@H](CO)[C@@H](O)[C@H](O)[C@@H]1O | LAI | - | RT activity | - | 2.12 µM
Cc1cn([C@H]2C[C@H](N=[N+]=[N-])[C@@H](COP(=O)(OCCS[C@@H]3O[C@H](CO)[C@@H](O)[C@H](O)[C@H]3O)OCCS[C@@H]3O[C@H](CO)[C@@H](O)[C@H](O)[C@H]3O)O2)c(=O)[nH]c1=O | LAI | - | RT activity | - | 0.01 µM
CC[C@H](C)[C@@H](C(=O)O)n1sc2ccccc2c1=O | RF | - | cytopathic effect / XTT | - | 9 µM
CCc1cc(COCc2ccccc2)c(OC)nc1C | LAI | - | RT activity | - | >10 µM
COC(=O)[C@H](C)NP(=O)(OC[C@@H]1C[C@]12C[C@@H]2n1cnc2c(N)ncnc21)Oc1ccccc1 | - | - | RT activity | - | 3.5 µM
CC(=O)OC[C@H]1O[C@@H](SCCOP(=O)(OCCS[C@@H]2O[C@H](CO)[C@@H](O)[C@H](O)[C@H]2O)OC[C@H]2O[C@@H](n3cc(C)c(=O)[nH]c3=O)C[C@@H]2N=[N+]=[N-])[C@H](OC(C)=O)[C@@H](OC(C)=O)[C@@H]1OC(C)=O | LAI | - | RT activity | - | 0.001 µM
Nc1nc2c(ncn2[C@H]2C[C@]23C[C@@H]3CO)c(=O)[nH]1 | RF | - | - | - | >100 µM
CC(C)(C)OC(=O)N[C@@H](Cc1ccccc1)[C@H](O)CNC[C@@H](O)[C@H](Cc1ccc(OCC(O)c2cccnc2)cc1)NC(=O)OC(C)(C)C | RF | - | cytopathic effect / XTT | - | 0.2 µM
Nc1ncnc2c1ncn2[C@H]1CC[C@@H](CO)O1 | IIIB | - | RT activity | 5 d | 0.08 µM
Nc1nc2c(ncn2[C@H]2C[C@@]23C[C@@H]3CO)c(=O)[nH]1 | - | - | - | - | >100 µM
Nc1ncnc2c1ncn2[C@H]1CC[C@@H](CO)O1 | LAI | - | RT activity | - | 1.5 µM
Cc1c(OC(=O)CCCCOc2ccc(C[C@H](N)C(=O)O)cc2)cccc1C(=O)N[C@@H](CSc1ccccc1)[C@H](O)CN1C[C@H]2CCCC[C@H]2C[C@H]1C(=O)NC(C)(C)C | LAI | - | RT activity | - | 0.021 µM
Nc1nc(Cl)nc2c1ncn2[C@@H]1C[C@@H](O)[C@H](CO)O1 | - | - | RT activity | - | >10 µM
CC(C)(C)NC(=O)[C@@H]1CN(Cc2cccnc2)CCN1C[C@H](C[C@@H](Cc1ccccc1)C(=O)N[C@H]1c2ccccc2C[C@H]1O)OC(=O)CCCCNC(=O)O[C@H]1[C@@H](C2COC(C)(C)O2)OC2OC(C)(C)O[C@H]21.O=C(O)C(F)(F)F.O=C(O)C(F)(F)F | LAI | - | cytopathic effect / MTT | - | 52 µM
Cc1cn([C@H]2C[C@H](N=[N+]=[N-])[C@@H](CO)O2)c(=O)[nH]c1=O | LAI | - | RT activity | - | 0.0012 µM
CC(C)(C)NC(=O)[C@@H]1C[C@@H]2CCCC[C@@H]2CN1C[C@@H](OC(=O)CCCCOc1ccc(C[C@H](N)C(=O)O)cc1)[C@H](Cc1ccccc1)NC(=O)[C@H](CC(N)=O)NC(=O)c1ccc2ccccc2n1 | LAI | - | RT activity | - | 0.039 µM
CC(C)(C)NC(=O)[C@@H]1C[C@@H]2CCCC[C@@H]2CN1C[C@@H](O)[C@H](Cc1ccccc1)NC(=O)[C@H](CC(N)=O)NC(=O)c1ccc2ccccc2n1 | LAI | - | cytopathic effect / MTT | - | 0.009 µM
NC(=O)C(c1ccccc1)(c1ccccc1)[C@H]1CCCN(CCc2ccc3c(c2)CCO3)C1 | NL4-3 | - | cytopathic effect / XTT | - | 1.1 µM
CCc1cc(COCc2ccccc2)c(S(C)(=O)=O)nc1C | LAI | - | RT activity | - | 57 µM
CC(C)(C)NC(=O)[C@@H]1CN(Cc2cccnc2)CCN1C[C@@H](O)C[C@@H](Cc1ccccc1)C(=O)N[C@H]1c2ccccc2C[C@H]1OC(=O)CCCCO[C@H]1O[C@H](CO)[C@@H](O)[C@H](O)[C@@H]1O | LAI | - | RT activity | - | 0.071 µM
Cc1cn([C@H]2C[C@@H]3[C@@H](COCN3O)O2)c(=O)[nH]c1=O | - | - | cytopathic effect / XTT | - | 2.5 µM
CC(C)CN(C[C@@H](O)[C@H](Cc1ccccc1)NC(=O)O[C@H]1CCOC1)S(=O)(=O)c1ccc(N)cc1 | IIIB | - | p24 | - | 0.012 µM
CC(C)(C)C(=O)OCCSP(=O)(OC[C@@H]1CC[C@H](n2cnc3c(N)ncnc32)O1)SCCOC(=O)C(C)(C)C | LAI | - | RT activity | - | 0.0077 µM
CC(C)(C)NC(=O)[C@@H]1CN(Cc2cccnc2)CCN1C[C@@H](O)C[C@@H](Cc1ccccc1)C(=O)N[C@H]1c2ccccc2C[C@H]1O | LAI | - | cytopathic effect / MTT | - | ~0.01 µM
Nc1nc(Cl)nc2c1ncn2[C@@H]1C[C@H](O)[C@H](CO)O1 | - | - | RT activity | - | >10 µM
CC(C)C[C@H](NC(=O)[C@@H](N)CO)C(=O)N[C@@H](CC(N)=O)C(=O)N[C@@H](Cc1ccccc1)B(O)O | RF | - | cytopathic effect / XTT | - | >82 µM
CC(C)(C)NC(=O)[C@@H]1CN(Cc2cccnc2)CCN1C[C@@H](O)C[C@@H](Cc1ccccc1)C(=O)N[C@H]1c2ccccc2C[C@H]1OC(=O)CCCCO[C@@H]1[C@@H](O)[C@@H](O)O[C@H](CO)[C@H]1O | LAI | - | RT activity | - | 0.048 µM
CCCCC[C@H](O)/C=C/[C@H]1C(=O)C=C[C@@H]1C/C=C\CCCC(=O)O | IIIB | - | p24 | - | 1 µg/mL
CCc1cc(COCc2ccccc2)c(=O)[nH]c1C | LAI | - | RT activity | - | 12 µM
Cc1occc1C(=S)Nc1ccc(Cl)c(/C=N/OC(C)(C)C)c1 | E BPTU-resistant (RT Y181C) | RT-Y181C | cytopathic effect / XTT | - | 0.06 µM
CC(=O)SCCOP(=O)(OCCSC(C)=O)OC[C@@H]1CC[C@H](n2cnc3c(=O)[nH]cnc32)O1 | LAI | - | RT activity | - | 1.2 µM
Cc1cn([C@H]2C[C@H](N=[N+]=[N-])[C@@H](CO)O2)c(=O)[nH]c1=O | TP1 | - | cytopathic effect / XTT | - | 0.0008 µM
CCc1cc(COCc2cccc(F)c2)c(OC)nc1C | LAI | - | RT activity | - | >10 µM
CC(=O)OC[C@H]1O[C@@H](SCCOP(=O)(OCS[C@@H]2O[C@H](COC(C)=O)[C@@H](OC(C)=O)[C@H](OC(C)=O)[C@H]2OC(C)=O)OC[C@H]2O[C@@H](n3cc(C)c(=O)[nH]c3=O)C[C@@H]2N=[N+]=[N-])[C@H](OC(C)=O)[C@@H](OC(C)=O)[C@@H]1OC(C)=O | LAI | - | RT activity | - | 0.03 µM
CCc1cc(COCc2cccc(F)c2)c(=O)[nH]c1C | LAI | - | RT activity | - | >10 µM
Cc1cn([C@H]2C[C@H](N=[N+]=[N-])[C@@H](CO)O2)c(=O)[nH]c1=O | KELL | - | cytopathic effect / XTT | - | 0.007 µM
NC(=O)c1ncn([C@@H]2O[C@H](CO)[C@@H](O)[C@H]2O)c1N | IIIB | - | RT activity | 16 h | >250 µM
CC(C)(C)NC(=O)[C@@H]1C[C@@H]2CCCC[C@@H]2CN1C[C@@H](OC(=O)CCCCO[C@H]1O[C@H](CO)[C@@H](O)[C@H](O)[C@@H]1O)[C@H](Cc1ccccc1)NC(=O)[C@H](CC(N)=O)NC(=O)c1ccc2ccccc2n1 | LAI | - | RT activity | - | 0.484 µM
Nc1nc2c(ncn2[C@H]2C[C@@]23C[C@H]3CO)c(=O)[nH]1 | RF | - | - | - | >100 µM
Cc1cn([C@H]2C=C[C@@H](COP(=O)(SCCOC(=O)C(C)(C)C)SCCOC(=O)C(C)(C)C)O2)c(=O)[nH]c1=O | LAI | - | RT activity | - | 0.0059 µM
CCc1cc(COCc2ccccc2F)c(=O)[nH]c1C | LAI | - | RT activity | - | 4.3 µM
Cc1cn([C@H]2C[C@H](N=[N+]=[N-])[C@@H](COP(=O)(OCCCCSC(=O)C(C)(C)C)OCCCCSC(=O)C(C)(C)C)O2)c(=O)[nH]c1=O | LAI | - | RT activity | - | 1 µM
CC(C)(C)NC(=O)[C@@H]1CC2CCCCC2CN1C[C@@H](OC(=O)CCCCNC(=O)O[C@H]1[C@@H](C2COC(C)(C)O2)OC2OC(C)(C)O[C@H]21)[C@H](Cc1ccccc1)NC(=O)[C@H](CC(N)=O)NC(=O)c1ccc2ccccc2n1.O=C(O)C(F)(F)F.O=C(O)C(F)(F)F.O=C(O)C(F)(F)F.O=C(O)C(F)(F)F | LAI | - | cytopathic effect / MTT | - | 3.6 µM
Cc1cn([C@H]2C[C@H](N=[N+]=[N-])[C@@H](CO)O2)c(=O)[nH]c1=O | - | - | - | - | 0.5 µM
O=[N+]([O-])c1ccccc1S(=O)(=O)c1ccccc1 | RF | - | - | - | 1.95–5.3 µM
Cc1cn([C@H]2C=C[C@@H](CO)O2)c(=O)[nH]c1=O | LAI | - | RT activity | - | 15 µM

For reference, 3 entries again:

structure,strain,changes,method,conditions,value
NC(=O)C(c1ccccc1)(c1ccccc1)[C@H]1CCCN(CCc2ccc3c(c2)CCO3)C1,NL4-3,-,cytopathic effect / XTT,-,1.1 µM
Cc1cn([C@H]2C[C@H](N=[N+]=[N-])[C@@H](COP(=O)(OCCCCSC(=O)C(C)(C)C)OCCCCSC(=O)C(C)(C)C)O2)c(=O)[nH]c1=O,LAI,-,RT activity,-,1 µM
CCc1cc(COCc2cccc(F)c2)c(=O)[nH]c1C,LAI,-,RT activity,-,>10 µM

An empty or dashed field is not shown. Rows are shuffled and stem from different studies. Two numbers with a dash give a range or band.